Laboratory results taken from patent US5773573A (priority 1994, dated 1998).
Some peptides are written in HELM: one residue between dots, names in brackets for other building blocks, links after the first $.

Experiment: general procedure: Boc solid-phase peptide synthesis; Boc-aminoacid-OCH2 pam resin; HBTU/DIEA
Conditions: whole synthesis, reverse-phase HPLC or automatic Edman sequencing, scale of the general procedure 0.05 mmole

Substance: PEPTIDE1{T.E.K.K.R.R.E.T.V.E.R.E.K.E}$$$$V2.0
- final HPLC purity: over 99%
